Anti-infective test results gathered from many reports (values: NIAID ChemDB through PubChem).

ECn is the concentration giving n% inhibition of infection, replication or growth. An empty or dashed field is not shown. Inhibition is in % at the dose shown (toxicity tests: loss of growth or viability). ICn is the concentration giving n% inhibition. MIC bound: limit read from a one-dose screen. Neighbouring rows are from separate reports. A number after MIC or MFC names an inhibition level or a share of isolates.

SMILES	endpoint	target	tested at	method	cells	strain or isolate	test	organism	value
COc1ccc(CCNCCNC(c2ccccc2)c2ccccc2)cc1OC	MIC						culture	Mycobacterium tuberculosis	50 µM
S=C(Nc1ccc(Cl)cc1)c1ccccn1	MIC bound					H37Rv	culture	Mycobacterium tuberculosis	<6.25 µg/mL
Nc1ccc2cc(S(=O)(=O)O)cc(S(=O)(=O)O)c2c1	inhibition		5 µg/mL	cytopathic effect	Human amnion AV3 cells		culture	Rhinovirus	7%
CCCCCCCCCCCNCCNC1CCCc2ccccc21	MIC						culture	Mycobacterium tuberculosis	25 µM
CC(=O)Nc1ccccc1O	MIC					H37Rv	culture	Mycobacterium tuberculosis	50 µg/mL
Fc1ccc(N2CCCCC2)c(NC(=S)c2ccncc2)c1	inhibition	EphB1	10 µM	kinase activity			host protein		17%
CCOc1ccc2ccccc2c1C(=O)Nc1nnc(NC2CCCCCC2)s1	IC50	Polymerase					target	Human cytomegalovirus	<25 µM
O=C1O[C@H]2C(O)[C@@H](CO)O[C@H]2n2c1cc(=O)[nH]c2=O	inhibition		12.5 µg/mL	BACTEC		H37Rv	culture	Mycobacterium tuberculosis	-19%
O=C(Nc1cc(S(=O)(=O)[O-])cc2cc(S(=O)(=O)[O-])ccc12)c1ccccc1	inhibition		10 µg/mL	cytopathic effect	Human amnion AV3 cells		culture	Herpes simplex virus	5%
COc1ccc(OC)c(-c2cncc(N3CCN(c4ccc(F)cc4)CC3)n2)c1	IC50	UL97 kinase					target	Cytomegalovirus	<100 µM
Cc1c(N)nc([C@H](CC(N)=O)NC[C@@H](N)C(N)=O)nc1C(=O)N[C@H](C(=O)NC(C)C(O)CC(=O)NC(C(=O)NC(OC1OC(C)C(N)C(O)C1O)C(O)c1nc(-c2nc(C(=O)NCCCCN)cs2)cs1)[C@H](C)O)C(OC1OC(CO)C(O)C(O)C1OC1OC(CO)C(O)C(OC(N)=O)C1O)c1cnc[nH]1.Cl.Cl.Cl.Cl	MIC					KM-R	culture	Mycobacterium tuberculosis	0.1 µg/mL
C=CCN(CC=C)C(=O)c1cnc2ccccc2c1.Cl	MIC					H37Rv	culture	Mycobacterium tuberculosis	>100 µg/mL
COc1ccn(C2OC(COC(C)=O)C(OC(C)=O)C(OC(C)=O)C2NC(=O)OCc2ccccc2)c(=O)n1	MIC bound			BACTEC		H37Rv	culture	Mycobacterium tuberculosis	>12.5 µg/mL
Nc1ccccc1OCCOCCOCCO	MIC					H37Rv	culture	Mycobacterium tuberculosis	>100 µg/mL
Cc1ccc(NCCN(C)CC(C)O)c2c(=O)c3ccccc3sc12	inhibition		12.5 µg/mL	BACTEC		H37Rv	culture	Mycobacterium tuberculosis	99%
O=C(Nc1ccc(C(=O)c2ccccc2)cc1)c1ccccc1	MIC					H37Rv	culture	Mycobacterium tuberculosis	>100 µg/mL
C=CCN(CCNCCC(c1ccccc1)c1ccccc1)C1CCCCC1	MIC						culture	Mycobacterium tuberculosis	25 µM
CCC(CC)[C@H](NC(C)=O)[C@@H]1[C@H](O)[C@@H](C(=O)O)C[C@H]1N=C(N)N	EC50				MDCK	H1N1 A/TEXAS/36/91	culture	Influenza A virus	0.09 µM
O=C(Nc1cc(S(=O)(=O)O)cc2cc(S(=O)(=O)O)cc(O)c12)c1ccccc1	inhibition		10 µg/mL	cytopathic effect	Human conjunctiva cells		culture	Herpes simplex virus	0%
CC(=O)N1c2ccccc2S(=O)c2cc([N+](=O)[O-])ccc21	MIC					H37Rv	culture	Mycobacterium tuberculosis	>100 µg/mL
O=S(=O)([O-])c1ccc2c(NS(=O)(=O)c3ccccc3)cc(S(=O)(=O)[O-])cc2c1	inhibition		10 µg/mL	cytopathic effect	Human embryonic lung cells	TYPE 3	culture	Adenovirus	10%
COc1cccc(-c2cncc(N3CCN(c4ccc(OC)c(OC)c4)CC3)n2)c1	inhibition	UL97 kinase	1 µM				target	Cytomegalovirus	<50%
Cc1nc(-n2nc(-c3ccccc3)cc2-c2ccccc2)sc1C(=O)CC(=O)C(=O)Nc1ccc(O)cc1	MIC bound			resazurin		H37Rv	culture	Mycobacterium tuberculosis	>6.25 µg/mL
c1ccc(N2CCN(c3cncc(-c4cccs4)n3)CC2)nc1	IC50	UL97 kinase					target	Cytomegalovirus	<100 µM
O=S(=O)(O)c1ccc(N=Nc2c(O)ccc3cc(S(=O)(=O)O)ccc23)cc1	inhibition		5 µg/mL	cytopathic effect	Human embryonic lung cells	TYPE 3	culture	Adenovirus	0%
CN1C(=O)CNC(=O)c2ccc(Cl)cc21	MIC bound			BACTEC		H37Rv	culture	Mycobacterium tuberculosis	>12.5 µg/mL
C=CCc1ccc(O)c(OC)c1	MIC90			turbidity		2779	culture	Candida albicans	485 µg/mL
COc1ccc(-c2cncc(N3CCN(c4cccc(Cl)c4)CC3)n2)cc1OC	IC50	UL97 kinase					target	Cytomegalovirus	<10 µM
CCOC(=O)N1N=C(c2ccccc2)OC2(N3CCOCC3)CCC(C(C)(C)C)CC12	MIC bound			BACTEC		H37Rv	culture	Mycobacterium tuberculosis	>12.5 µg/mL
CCCCCCCC/C=C/CCCCCCCC(=O)Nc1nnc(NCCCCCCCCCCC)s1	IC50	Polymerase					target	Human cytomegalovirus	<25 µM
Nc1ccc(-c2ccccc2O)cc1	MIC					H37Rv	culture	Mycobacterium tuberculosis	>100 µg/mL
NCS(=O)(=O)O	inhibition		10 µg/mL	cytopathic effect	Human conjunctiva cells		culture	Herpes simplex virus	0%
COc1ccc(N2CCN(c3cncc(-c4cccc(OC)c4)n3)CC2)cc1	inhibition	UL97 kinase	10 µM				target	Cytomegalovirus	>15%
CC[N+](C)(CC)CCNc1cc2c(c3c(=O)c4ccccc4sc13)CCCC2	MIC			BACTEC	VERO	H37Rv	culture	Mycobacterium tuberculosis	12.5 µg/mL
COCC(O)CO	MIC					H37Rv	culture	Mycobacterium tuberculosis	>100 µg/mL
C[C@@H]1CC[C@H]2O[C@]23C(=O)O[C@H]2OC(C)(C)[C@H]([C@@H]2O)[C@@]13C	MIC bound			BACTEC		H37Rv	culture	Mycobacterium tuberculosis	>12.5 µg/mL
O/N=C/CCOc1ccccc1	MIC					H37Rv	culture	Mycobacterium tuberculosis	100 µg/mL
CC1=C(C(=O)Nc2ccc(Cl)c(C(=O)OC(C)C)c2)SCCO1	inhibition		12.5 µg/mL	BACTEC		H37Rv	culture	Mycobacterium tuberculosis	11%
Oc1ccc(CCNCCNCc2ccccc2F)cc1	MIC						culture	Mycobacterium tuberculosis	50 µM
O=C(Nc1nnc(NCCCN2CCCC2=O)s1)c1ccc(Cl)c(Cl)c1	IC50	Polymerase					target	Human cytomegalovirus	>25 µM
CCCNc1cncc(-c2ccc(C(N)=O)cc2)n1	IC50	UL97 kinase					target	Cytomegalovirus	<1 µM
Cn1ncc2c(N(N)CCO)nc(-c3ccc([N+](=O)[O-])o3)nc21	MIC bound			BACTEC		H37Rv	culture	Mycobacterium tuberculosis	≤12.5 µg/mL
Nc1ccc(NC(=O)Nc2ccccc2)cc1	MIC					H37Rv	culture	Mycobacterium tuberculosis	>100 µg/mL
Cn1c(-c2ccc(/C=N/NC(N)=NCCCCCCN=C(N)N/N=C/c3ccc(-c4c[n+]5ccccc5n4C)cc3)cc2)c[n+]2ccccc12.I.I.[I-].[I-]	inhibition		12.5 µg/mL	BACTEC		H37Rv	culture	Mycobacterium tuberculosis	90%
O=C(Nc1nnc(NCCCNC2CCCCC2)s1)c1cc2ccccc2s1	IC50	Polymerase					target	Human cytomegalovirus	<25 µM
CCCCCC(C)NCCNc1cccc2ncccc12	MIC						culture	Mycobacterium tuberculosis	6.25 µM
S=C=Nc1ccc(Br)c2ccccc12	MIC					H37Rv	culture	Mycobacterium tuberculosis	>100 µg/mL
N#Cc1ccc(-c2cncc(N3CCN(c4ccncc4)CC3)n2)cc1	IC50	UL97 kinase					target	Cytomegalovirus	<10 µM
CC(C)(C)c1cc(C(C)(C)O)c2c(c1)C(C)(C)OS2(C)Cl	MIC bound			BACTEC		H37Rv	culture	Mycobacterium tuberculosis	>12.5 µg/mL
CC(C)c1ccc2c(c1)CC[C@H]1[C@](C)(CNCCN[C@@H]3C[C@@H]4C[C@H]([C@H]3C)C4(C)C)CCC[C@]21C	MIC						culture	Mycobacterium tuberculosis	50 µM
NS(=O)(=O)c1cc([N+](=O)[O-])ccc1Cl	MIC					H37Rv	culture	Mycobacterium tuberculosis	100 µg/mL
C#CC[C@@H](C(=O)N[C@H](/C=C/C(=O)OCC)C[C@@H]1CCNC1=O)n1cccc(NC(=O)c2cc(C)on2)c1=O	EC50			cytopathic effect / XTT	H1-HELA	Serotype 19	culture	Rhinovirus	0.049 µM
O=C(CCCO)NN=Cc1ccc([N+](=O)[O-])s1	inhibition		12.5 µg/mL	BACTEC		H37Rv	culture	Mycobacterium tuberculosis	59%
CCOc1cc(NC(=O)c2ccco2)c(OCC)cc1N	MIC					H37Rv	culture	Mycobacterium tuberculosis	>100 µg/mL
C[C@H](Cc1ccc(O)c(O)c1)[C@@H](C)Cc1ccc(O)c(O)c1	MIC80			broth dilution		CCC 124-2000	culture	Candida parapsilosis	250 µg/mL
Nc1ccc2nc[nH]c(=O)c2c1	MIC					H37Rv	culture	Mycobacterium tuberculosis	>100 µg/mL
O=C(Nc1ccc(Nc2ccncc2)cc1)c1ccc(Nc2ccnc3ccc([N+](=O)[O-])cc23)cc1[N+](=O)[O-]	inhibition		12.5 µg/mL	BACTEC		H37Rv	culture	Mycobacterium tuberculosis	99%
C[C@@H]1[C@@H](NCCNCC(c2ccccc2)c2ccccc2)C[C@H]2C[C@@H]1C2(C)C	MIC						culture	Mycobacterium tuberculosis	3.13 µM
Cl.c1cc(NCCCN2CCCCC2)ccn1	MIC					H37Rv	culture	Mycobacterium tuberculosis	>100 µg/mL
S=C(S)Nc1cccc2ccccc12	MIC bound			BACTEC		H37Rv	culture	Mycobacterium tuberculosis	>12.5 µg/mL
Fc1ccccc1CNCCNCCc1ccc(Cl)cc1Cl	MIC						culture	Mycobacterium tuberculosis	50 µM
NS(=O)(=O)c1ccc(N2C(=S)N(c3ccccc3)C(=Nc3ccccc3)C2=Nc2ccccc2)cc1	MIC bound			BACTEC		H37Rv	culture	Mycobacterium tuberculosis	≤12.5 µg/mL
CCOC(=O)c1ccc(OCCC2CCN(c3ccc(C)nn3)CC2)cc1	EC50			neutral red	KB	2268-CV37 (ICAM-1 receptor group 60)	culture	Rhinovirus	0.038 µM
O=C(Nc1nnc(NCc2cccc3ccccc23)s1)c1ccc(I)cc1	IC50	Polymerase					target	Human cytomegalovirus	>25 µM
N#Cc1ccc(N2CCCCC2)cc1[N+](=O)[O-]	MIC					H37Rv	culture	Mycobacterium tuberculosis	25 µg/mL
O=C(/C=C/c1ccccc1Cl)Nc1nnc(NCC2CC2)s1	IC50	Polymerase					target	Human cytomegalovirus	<25 µM
O=C([O-])c1ccco1.[Na+]	MIC					H37Rv	culture	Mycobacterium tuberculosis	<0.1 µg/mL
Cc1ccc(N2CCN(c3cncc(-c4ccc(F)c(Cl)c4)n3)CC2)cc1C	IC50	UL97 kinase					target	Cytomegalovirus	<100 µM
Cc1cccc(OCC(=O)O)c1	MIC					H37Rv	culture	Mycobacterium tuberculosis	>100 µg/mL
CCCCCCCC/C=C/CCCCCCCC(=O)Nc1nnc(NCCSc2ccccc2)s1	IC50	Polymerase					target	Human cytomegalovirus	<25 µM
C1CN(P(N2CCOCC2)N2CCOCC2)CCO1	MIC					H37Rv	culture	Mycobacterium tuberculosis	>100 µg/mL
Clc1cccc(N2CCN(c3cncc(-c4ccc5ccccc5c4)n3)CC2)c1	inhibition	UL97 kinase	10 µM				target	Cytomegalovirus	>15%
Cc1cc(C)n2nc(N)c(C#N)c2c1C#N	MIC bound			resazurin		H37Rv	culture	Mycobacterium tuberculosis	>6.25 µg/mL
CCCCc1ccc(S(=O)(=O)Nc2ccc(N)cc2)cc1	MIC					H37Rv	culture	Mycobacterium tuberculosis	100 µg/mL
CCN(CC)CC(=O)Nc1ccc(C)c(Cl)c1	inhibition		12.5 µg/mL	BACTEC		H37Rv	culture	Mycobacterium tuberculosis	-19%
O=C(O)COc1ccccc1	MIC					H37Rv	culture	Mycobacterium tuberculosis	>100 µg/mL

Again, the opening 9 rows:

SMILES	endpoint	target	tested at	method	cells	strain or isolate	test	organism	value
COc1ccc(CCNCCNC(c2ccccc2)c2ccccc2)cc1OC	MIC						culture	Mycobacterium tuberculosis	50 µM
S=C(Nc1ccc(Cl)cc1)c1ccccn1	MIC bound					H37Rv	culture	Mycobacterium tuberculosis	<6.25 µg/mL
Nc1ccc2cc(S(=O)(=O)O)cc(S(=O)(=O)O)c2c1	inhibition		5 µg/mL	cytopathic effect	Human amnion AV3 cells		culture	Rhinovirus	7%
CCCCCCCCCCCNCCNC1CCCc2ccccc21	MIC						culture	Mycobacterium tuberculosis	25 µM
CC(=O)Nc1ccccc1O	MIC					H37Rv	culture	Mycobacterium tuberculosis	50 µg/mL
Fc1ccc(N2CCCCC2)c(NC(=S)c2ccncc2)c1	inhibition	EphB1	10 µM	kinase activity			host protein		17%
CCOc1ccc2ccccc2c1C(=O)Nc1nnc(NC2CCCCCC2)s1	IC50	Polymerase					target	Human cytomegalovirus	<25 µM
O=C1O[C@H]2C(O)[C@@H](CO)O[C@H]2n2c1cc(=O)[nH]c2=O	inhibition		12.5 µg/mL	BACTEC		H37Rv	culture	Mycobacterium tuberculosis	-19%
O=C(Nc1cc(S(=O)(=O)[O-])cc2cc(S(=O)(=O)[O-])ccc12)c1ccccc1	inhibition		10 µg/mL	cytopathic effect	Human amnion AV3 cells		culture	Herpes simplex virus	5%